{"source": "paper PMC9637222", "about": "(Nature Communications, 2022)", "target": "T1, InvF (tag-free, purified) (S. Typhimurium, UniProt P69343 1-216)", "T1 sequence": "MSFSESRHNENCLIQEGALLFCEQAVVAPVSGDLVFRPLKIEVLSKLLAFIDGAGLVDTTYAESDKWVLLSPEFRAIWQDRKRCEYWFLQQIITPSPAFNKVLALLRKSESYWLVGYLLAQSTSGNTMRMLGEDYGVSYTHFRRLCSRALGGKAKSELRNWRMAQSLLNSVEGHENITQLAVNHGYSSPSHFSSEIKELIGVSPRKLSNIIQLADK", "assay": "ITC", "data": [{"binder": "SicA N70A (tag-free, purified) (natural protein) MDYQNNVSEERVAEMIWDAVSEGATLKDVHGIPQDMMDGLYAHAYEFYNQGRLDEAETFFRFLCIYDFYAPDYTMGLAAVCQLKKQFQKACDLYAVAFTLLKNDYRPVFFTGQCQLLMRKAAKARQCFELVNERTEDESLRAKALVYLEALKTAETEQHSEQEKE", "values": [{"measurement": "binding result", "value": "binds"}]}]}
